# “Also recorded” adds a separate entry of the source. Like-named read-outs stand apart in the source and are kept apart here. Positions of bridges follow the written chain, without caps; N, C: chain ends. Residues, ends and D or L forms follow the SMILES beside them.
# Legend:
# [1] = tested on: total and TTX-s NaV current in wild-type DRG neurons; test: Persistent total NaV current, manual patch clamp, mouse DRG neurons; assay type: cell-based
# [2] = tested on: NaV1.8; assay type: cell-based, mouse
Structure (SMILES),effect on persistent NaV current / NaV inactivation in DRG neurons [1],effect on NaV1.8 persistent current [2],reversibility of effects on NaV function [1],effect on persistent NaV current / NaV inactivation in DRG neurons ([1]; ExTxA 100 nM)
"NC1=N[C@H](O)[C@H]2[C@H]3O[C@]4(O)O[C@@H]([C@@H](O)[C@@]2(N1)[C@@H]4O)[C@]3(O)CO [TTX, tetrodotoxin, reference compound]",blocked,–,–,–
"CC[C@H](C)[C@@H]1NC(=O)[C@H](CCCNC(=N)N)NC(=O)[C@H](Cc2ccccc2)NC(=O)[C@H](CC(C)C)NC(=O)[C@H](CO)NC(=O)[C@@H]2CSSC[C@@H]3NC(=O)[C@H]([C@@H](C)O)NC(=O)[C@H](CSSC[C@H](NC(=O)[C@H](CCCNC(=N)N)NC(=O)[C@@H]4CCCN4C(=O)[C@@H](N)CC(C)C)C(=O)N[C@@H](CC(=O)O)C(=O)N[C@@H](CO)C(=O)N4CCC[C@H]4C(=O)N[C@@H](Cc4ccccc4)C(=O)N2)NC(=O)[C@H](CCCCN)NC(=O)[C@H](CC(=O)O)NC(=O)CNC(=O)[C@H](CSSC[C@@H](C(=O)N[C@H](C(=O)N2CCC[C@H]2C(=O)N[C@@H](CC(=O)O)C(=O)N[C@H](C(=O)O)C(C)C)C(C)C)NC(=O)[C@H](CC(C)C)NC(=O)CNC(=O)[C@H](Cc2ccccc2)NC(=O)[C@H]([C@@H](C)CC)NC(=O)[C@@H]2CCCN2C(=O)[C@H](CC(C)C)NC(=O)[C@@H]2CCCN2C(=O)[C@H](C(C)C)NC3=O)NC(=O)[C@H](CC(C)C)NC(=O)CNC1=O [ExTxA, excelsatoxin A] (H-LPRCDSPFCSLFRIGLCGDKCTCVPLPIFGLCVPDV-OH; disulfide 4-21, 9-23, 17-32)",–,"slightly increased persistent currents of NaV1.8 channels; also recorded: Smaller, but statistically significant effects",near-irreversible effects,"induces persistent NaV currents; also recorded: striking inhibition of NaV inactivation, leading to persistent currents"
